# PubChem BioAssay AID1224833 – University of Georgia | 2016
# Assay: 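Host factors restraining rotavirus as candidate antiviral genes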 (primary screen)
# System: monkey MA104 kidney cells
# Knock-down reagent: siRNA pool against human genes, 50 nM
# Duration: 48 h knock-down before infection; read 24 h after infection
# Treatment: infection with rotavirus strain RV3 two days after transfection; infectious dose for this stage not given
# Detection: 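Rotavirus antigen per well by fluorescent immunoassay, normalised to non-targeting control wells on each plate and given as a standard z-score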
# Reading the numbers: z-score vs non-targeting control: higher = more rotavirus replication than with non-targeting control
# Rule for the call: In these data the active calls have z-score vs non-targeting control at about -1 or lower, or at about 1 or higher
# Calls: active = z-score beyond 1 either way; inactive = z-score within 1 of zero
# Shown is a random part of about 12,000 reagents tested. Over the whole deposit, about 5,600 (46%) were called active. 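Active calls cover z-scores past 1 in both directions, so they include lowered as well as raised rotavirus replication.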 Unmarked entries are inactive.
gene knocked down,z-score vs non-targeting control
MVB12B (multivesicular body subunit 12B),0.104
ATP13A5 (ATPase 13A5),-2.83 (active)
PEX5L (peroxisomal biogenesis factor 5 like),-0.907
"ST6GALNAC2 (ST6 N-acetylgalactosaminide alpha-2,6-sialyltransferase 2)",-0.571
AFF1 (ALF transcription elongation factor 1),-1.17 (active)
KIAA1143,-0.0501
PRAME (PRAME nuclear receptor transcriptional regulator),-1.74 (active)
IL22RA1 (interleukin 22 receptor subunit alpha 1),1.02 (active)
MTHFD2L,-0.99
"IRAG2 (inositol 1,4,5-triphosphate receptor associated 2)",-1.74 (active)
DAAM2 (dishevelled associated activator of morphogenesis 2),0.442
USP7 (ubiquitin specific peptidase 7),1.07 (active)
GDPD5 (glycerophosphodiester phosphodiesterase domain containing 5),-0.26
ART5 (ADP-ribosyltransferase 5),0.722
SERPINA6 (serpin family A member 6),1.51 (active)
GTF2E2 (general transcription factor IIE subunit 2),0.6
MED31 (mediator complex subunit 31),-1.42 (active)
CHAF1A (chromatin assembly factor 1 subunit A),-0.247
OR7G1 (olfactory receptor family 7 subfamily G member 1),-1.61 (active)
MACROH2A1 (macroH2A.1 histone),1.63 (active)
GSTO2 (glutathione S-transferase omega 2),0.81
N4BP1 (NEDD4 binding protein 1),-1.02 (active)
"NFIL3 (nuclear factor, interleukin 3 regulated)",2.47 (active)
ERLIN2 (ER lipid raft associated 2),0.72
THEMIS2 (thymocyte selection associated family member 2),-0.572
TUBGCP2 (tubulin gamma complex component 2),-0.881
SLC26A4,-1.21 (active)

Records listed so far whose gene name starts with M or m (4):
gene knocked down,z-score vs non-targeting control
MVB12B (multivesicular body subunit 12B),0.104
MTHFD2L,-0.99
MED31 (mediator complex subunit 31),-1.42 (active)
MACROH2A1 (macroH2A.1 histone),1.63 (active)

The list goes on:
gene knocked down,z-score vs non-targeting control
OR5AP2 (olfactory receptor family 5 subfamily AP member 2),-0.832
CLEC4A (C-type lectin domain family 4 member A),0.669
TAX1BP1 (Tax1 binding protein 1),-2.35 (active)
CLIC2 (CLIC family member 2),1.55 (active)
OCLN (occludin),-0.574
STAMBPL1 (STAM binding protein like 1),-2.84 (active)
PSMB2 (proteasome 20S subunit beta 2),1.78 (active)
C1orf159 (chromosome 1 open reading frame 159),2.06 (active)
TGFB3 (transforming growth factor beta 3),-1.37 (active)
CCDC54 (coiled-coil domain containing 54),0.234
CCL17 (C-C motif chemokine ligand 17),0.248
KRT72 (keratin 72),-0.0236
SLC5A7,-2.11 (active)
BRCA2 (BRCA2 DNA repair associated),0.983
LSP1 (lymphocyte specific protein 1),-0.546
FEZF2 (FEZ family zinc finger 2),-0.973
CST2 (cystatin SA),-3.79 (active)
BST1 (bone marrow stromal cell antigen 1),1.4 (active)
TDP2 (tyrosyl-DNA phosphodiesterase 2),-2.07 (active)
SEMA6A (semaphorin 6A),0.168
ELL2 (elongation factor for RNA polymerase II 2),-0.595
CCDC22 (CCC complex scaffolding subunit CCDC22),0.363
ARPC1A (actin related protein 2/3 complex subunit 1A),-1.3 (active)
C1QTNF6 (C1q and TNF related 6),-2.52 (active)
CSRNP3 (cysteine and serine rich nuclear protein 3),-0.779
MCUR1 (mitochondrial calcium uniporter regulator 1),-1.28 (active)
CORO1C (coronin 1C),-1.57 (active)
MALSU1 (mitochondrial assembly of ribosomal large subunit 1),-0.136
EFEMP1 (EGF-like fibulin extracellular matrix protein 1),-1.96 (active)
LRTM2 (leucine rich repeat transmembrane protein 2),-0.9
GADD45G (growth arrest and DNA damage inducible gamma),-2.33 (active)
HEATR4 (HEAT repeat containing 4),-0.502
HOXC6 (homeobox C6),2.06 (active)
PLXNA1 (plexin A1),0.997
PCOTH (prostate and testis expressed opposite C1QTNF9B and MIPEP),1.32 (active)
CINP (cyclin dependent kinase 2 interacting protein),0.246
PPARA (peroxisome proliferator activated receptor alpha),-1.02 (active)
NCOA4 (nuclear receptor coactivator 4),-0.704
CXCL16 (C-X-C motif chemokine ligand 16),0.628
ADAMTS17 (ADAM metallopeptidase with thrombospondin type 1 motif 17),1.18 (active)
SLC25A13,0.795
NTNG2 (netrin G2),-0.471
ELF3 (E74 like ETS transcription factor 3),1.69 (active)
CCDC17 (coiled-coil domain containing 17),-1.42 (active)
MKI67 (marker of proliferation Ki-67),1.51 (active)
MXRA7 (matrix remodeling associated 7),-0.13
RMC1 (regulator of MON1-CCZ1),-0.0694
SEH1L (SEH1 like nucleoporin),0.332
